{"source": "PubChem BioAssay AID504761 (Drosophila RNAi Screening Center, 2011)", "purpose": "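Insect host genes that dengue virus relies on to spread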 (primary screen)", "system": "D.Mel-2 cells from Drosophila", "knock-down reagent": "long dsRNA against Drosophila genes", "conditions": "infection with dengue virus type 2; dose and infection time not stated", "detection": "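Cells stained for dengue envelope protein and imaged; percent of infected cells per well on duplicate plates, ranked by infection, with stained nuclei counted for cell number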", "scale": "infection score: higher = more virus-infected cells; cell count: higher = more cells in the well", "call rule": "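Low infection ranks in the two replicates (chance level up to 0.065) followed by a retest with a 1.5-fold or larger significant decrease, p below 0.05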", "calls": "active = confirmed: knock-down lowers infection; inactive = not picked or not confirmed", "note": "The deposit covers about 22,000 reagents; below is an unselected part of those with a known target gene and a result. Of all reagents, 116 (0.52%) are marked active. 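Calls depend on retest data that are not deposited; infection was ranked per plate without normalising between plates; the unit of the infection score is not given.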 The raw values are shown without normalisation. The numbers tell different reagents against one gene apart. Names joined by + are all predicted targets of the reagent. Not all columns of the deposit are shown. No sequences are given here. The record does not give: the amount of reagent, the time to read-out."}
{"predicted target":"CG3770","reagent no.":1,"infection score, replicate 1":3.94,"cell count, replicate 1":6518,"call":"inactive"}
{"predicted target":"pr","reagent no.":1,"infection score, replicate 1":5.21,"cell count, replicate 1":6357,"call":"inactive"}
{"predicted target":"CG17344","reagent no.":1,"infection score, replicate 1":6.7,"cell count, replicate 1":6181,"call":"inactive"}
{"predicted target":"CG12288","reagent no.":1,"infection score, replicate 1":7.96,"cell count, replicate 1":6234,"call":"inactive"}
{"predicted target":"CG8320 + ATPCL","reagent no.":1,"infection score, replicate 1":7.39,"cell count, replicate 1":7059,"call":"inactive"}
{"predicted target":"Pex2","reagent no.":1,"infection score, replicate 1":4.47,"cell count, replicate 1":6892,"call":"inactive"}
{"predicted target":"trx","reagent no.":1,"infection score, replicate 1":6.06,"cell count, replicate 1":6350,"call":"inactive"}
{"predicted target":"dysf","reagent no.":1,"infection score, replicate 1":3,"cell count, replicate 1":6039,"call":"inactive"}
{"predicted target":"dysf","reagent no.":2,"infection score, replicate 1":2.45,"cell count, replicate 1":6365,"call":"inactive"}
{"predicted target":"dysf","reagent no.":3,"infection score, replicate 1":1.06,"cell count, replicate 1":6953,"call":"inactive"}
{"predicted target":"hb","reagent no.":1,"infection score, replicate 1":4.67,"cell count, replicate 1":6533,"call":"inactive"}
{"predicted target":"hb","reagent no.":2,"infection score, replicate 1":15.2,"cell count, replicate 1":5797,"call":"inactive"}
{"predicted target":"CG7987","reagent no.":1,"infection score, replicate 1":3.87,"cell count, replicate 1":6403,"call":"inactive"}
{"predicted target":"CG7987","reagent no.":2,"infection score, replicate 1":14.2,"cell count, replicate 1":6145,"call":"inactive"}

2 entries from above, ordered by “cell count, replicate 1”, highest first:
{"predicted target":"CG8320 + ATPCL","reagent no.":1,"infection score, replicate 1":7.39,"cell count, replicate 1":7059,"call":"inactive"}
{"predicted target":"Pex2","reagent no.":1,"infection score, replicate 1":4.47,"cell count, replicate 1":6892,"call":"inactive"}
